Results on 31 compounds are retold here after US20240309012A1, “ISOQUINOLINE COMPOUND, MANUFACTURING METHOD THEREFOR, AND APPLICATION THEREOF” (priority 2020, published 2024).

Where only a bound is given, the exact number is not on record here.

The series relates to 2019 novel coronavirus (SARS-CoV-2). Put plainly: Inhibition of 2019 novel coronavirus (SARS-CoV-2) replication in Vero E6 cells, virus copy number by qRT-PCR. The series is classed as cell-based. Conditions: for Therapeutic index SI: CC50/EC50, Vero E6 cells; for SI Ratio (SI ratio of each compound to berbamine hydrochloride): relative to berbamine hydrochloride.

As to `COc1cc2c3cc1Oc1c(OC)c(OC)cc4c1[C@@H](Cc1ccc(C#N)c(c1)Oc1ccc(cc1)C[C@@H]3N(C)CC2)N(C)CC4` [Compound 1], the “Therapeutic index SI” value is 36.56 and the “SI Ratio (SI ratio of each compound to berbamine hydrochloride)” value (from here on “SI Ratio”) is on record as 17.75.

`COc1cc2c3cc1Oc1c(OC)c(OC)cc4c1[C@@H](Cc1ccc(C=O)c(c1)Oc1ccc(cc1)C[C@@H]3N(C)CC2)N(C)CC4` [Compound 2]: the “Therapeutic index SI” value is 85.71 and the “SI Ratio” value worked out at 41.61.

As to `COc1cc2c3cc1Oc1c(OC)c(OC)cc4c1[C@@H](Cc1ccc(CO)c(c1)Oc1ccc(cc1)C[C@@H]3N(C)CC2)N(C)CC4` [Compound 3], the “Therapeutic index SI” value is 62.99 and the “SI Ratio” value was found to be 30.58.

`CCCCNC(=O)Oc1ccc2cc1Oc1ccc(cc1)C[C@H]1c3cc(c(OC)cc3CCN1C)Oc1c(OC)c(OC)cc3c1[C@@H](C2)N(C)CC3` [Compound 4]: the “Therapeutic index SI” value was determined as 33.47 and the “SI Ratio” value came out at 16.25.

Consider `COc1cc2c3cc1Oc1c(OC)c(OC)cc4c1[C@@H](Cc1ccc(OC(=O)CCCC[C@H]5CCSS5)c(c1)Oc1ccc(cc1)C[C@@H]3N(C)CC2)N(C)CC4` [Compound 5], for which the “Therapeutic index SI” value is reported as 114.80 and the “SI Ratio” value is reported as 55.73.

As for `COC(=O)c1ccc2cc1Oc1ccc(cc1)C[C@H]1c3cc(c(OC)cc3CCN1C)Oc1c(OC)c(OC)cc3c1[C@@H](C2)N(C)CC3` [Compound 8], the “Therapeutic index SI” value amounted to 87.22 and the “SI Ratio” value is 42.34.

As to `COc1cc2c3cc1Oc1c(OC)c(OC)cc4c1[C@@H](Cc1ccc(C(N)=O)c(c1)Oc1ccc(cc1)C[C@@H]3N(C)CC2)N(C)CC4` [Compound 9], the “Therapeutic index SI” value came out at 114.91 and the “SI Ratio” value is given as 55.78.

Regarding `COc1cc2c3cc1Oc1c(OC)c(OC)cc4c1[C@@H](Cc1cc(c5oc(=O)[nH]c5c1)Oc1ccc(cc1)C[C@@H]3N(C)CC2)N(C)CC4` [Compound 18], the “Therapeutic index SI” value is given as 16.33 and the “SI Ratio” value came out at 7.92.

Take `COc1cc2c3cc1Oc1c(OC)c(OC)cc4c1[C@@H](Cc1ccc(C(C)=O)c(c1)Oc1ccc(cc1)C[C@@H]3N(C)CC2)N(C)CC4` [Compound 25]: the “Therapeutic index SI” value is recorded as more than 14.7 and the “SI Ratio” value is on record as more than 7.14.

Take `COc1cc2c3cc1Oc1c(OC)c(OC)cc4c1[C@@H](Cc1ccc(C(=O)NC5CCCC5)c(c1)Oc1ccc(cc1)C[C@@H]3N(C)CC2)N(C)CC4` [Compound 28]: the “Therapeutic index SI” value was determined as 9.38 and the “SI Ratio” value worked out at 4.55.

Consider `COc1cc2c3cc1Oc1c(OC)c(OC)cc4c1[C@@H](Cc1cc(cc([N+](=O)[O-])c1)Oc1ccc(cc1)C[C@@H]3N(C)CC2)N(C)CC4` [Compound 33], for which the “Therapeutic index SI” value is given as 38.57 and the “SI Ratio” value is 18.72.

On to `COc1cc2c3cc1Oc1c(OC)c(OC)cc4c1[C@@H](Cc1cccc(c1)Oc1ccc(cc1)C[C@@H]3N(C)CC2)N(C)CC4` [Compound 39], for which the “Therapeutic index SI” value is on record as 18.39 and the “SI Ratio” value amounted to 8.93.

Consider `C=C(C)c1ccc2cc1Oc1ccc(cc1)C[C@H]1c3cc(c(OC)cc3CCN1C)Oc1c(OC)c(OC)cc3c1[C@@H](C2)N(C)CC3` [Compound 40], for which the “Therapeutic index SI” value came out at 12.31 and the “SI Ratio” value is 5.98.

On to `COc1cc2c3cc1Oc1c(OC)c(OC)cc4c1[C@@H](Cc1ccc(C)c(c1)Oc1ccc(cc1)C[C@@H]3N(C)CC2)N(C)CC4` [Compound 41], for which the “Therapeutic index SI” value amounted to 4.16 and the “SI Ratio” value stood at 2.02.

In the case of `C=CC(=O)Nc1ccc2cc1Oc1ccc(cc1)C[C@H]1c3cc(c(OC)cc3CCN1C)Oc1c(OC)c(OC)cc3c1[C@@H](C2)N(C)CC3` [Compound 42], the “Therapeutic index SI” value was more than 15.55 and the “SI Ratio” value is recorded as more than 7.55.

Regarding `CCCCCNC(=O)c1ccc2cc1Oc1ccc(cc1)C[C@H]1c3cc(c(OC)cc3CCN1C)Oc1c(OC)c(OC)cc3c1[C@@H](C2)N(C)CC3` [Compound 43], the “Therapeutic index SI” value was 4.97 and the “SI Ratio” value turned out to be 2.41.

Turning to `COc1cc2c3cc1Oc1c(OC)c(OC)cc4c1[C@@H](Cc1ccc(C5CC5)c(c1)Oc1ccc(cc1)C[C@@H]3N(C)CC2)N(C)CC4` [Compound 44], the “Therapeutic index SI” value was determined as 4.80 and the “SI Ratio” value worked out at 2.33.

Turning to `COc1cc2c3cc1Oc1c(OC)c(OC)cc4c1[C@@H](Cc1ccc(C(C)O)c(c1)Oc1ccc(cc1)C[C@@H]3N(C)CC2)N(C)CC4` (some centres unmarked) [Compound 46], the “Therapeutic index SI” value is 29.12 and the “SI Ratio” value worked out at 14.13.

On to `COc1cc2c3cc1Oc1c(OC)c(OC)cc4c1[C@@H](Cc1ccc(C(=O)N5CCCCC5)c(c1)Oc1ccc(cc1)C[C@@H]3N(C)CC2)N(C)CC4` [Compound 47], for which the “Therapeutic index SI” value is given as more than 12.30 and the “SI Ratio” value is more than 5.97.

On to `COc1cc2c3cc1Oc1c(OC)c(OC)cc4c1[C@@H](Cc1ccc(C(=O)NC5CC5)c(c1)Oc1ccc(cc1)C[C@@H]3N(C)CC2)N(C)CC4` [Compound 49], for which the “Therapeutic index SI” value is more than 31.15 and the “SI Ratio” value is more than 15.12.

For the compound `COc1cc2c3cc1Oc1c(OC)c(OC)cc4c1[C@@H](Cc1ccc(C(=O)Nc5ccccc5)c(c1)Oc1ccc(cc1)C[C@@H]3N(C)CC2)N(C)CC4` [Compound 51], the “Therapeutic index SI” value is given as more than 5.10 and the “SI Ratio” value is listed as more than 2.48.

Take `CCCCNC(=O)Oc1c(OC)cc2c3c1Oc1cc4c(cc1OC)CCN(C)[C@H]4Cc1ccc(cc1)Oc1cc(ccc1OC)C[C@H]3N(C)CC2` [Compound 53]: the “Therapeutic index SI” value is more than 11.10 and the “SI Ratio” value was more than 5.38.

Turning to `COc1cc2c3cc1Oc1c(OC)c(OC)cc4c1[C@@H](Cc1ccc(C(=O)Nc5ccc(C(F)(F)F)cc5)c(c1)Oc1ccc(cc1)C[C@@H]3N(C)CC2)N(C)CC4` [Compound 54], the “Therapeutic index SI” value is recorded as more than 5.25 and the “SI Ratio” value is recorded as more than 2.55.

As for `COc1cc2c3cc1Oc1c(OC)c(OC)cc4c1[C@@H](Cc1ccc(C(=O)NC(C)C)c(c1)Oc1ccc(cc1)C[C@@H]3N(C)CC2)N(C)CC4` [Compound 55], the “Therapeutic index SI” value is recorded as more than 16 and the “SI Ratio” value was more than 7.77.

With `COc1cc2c3cc1Oc1c(OC)c(OC)cc4c1[C@@H](Cc1ccc(C(=O)NC5CCC5)c(c1)Oc1ccc(cc1)C[C@@H]3N(C)CC2)N(C)CC4` [Compound 57], the “Therapeutic index SI” value is given as more than 16.95 and the “SI Ratio” value is more than 8.23.

With `COc1cc2c3cc1Oc1c(OC)c(OC)cc4c1[C@@H](Cc1ccc(C(=O)Nc5cccnc5)c(c1)Oc1ccc(cc1)C[C@@H]3N(C)CC2)N(C)CC4` [Compound 58], the “Therapeutic index SI” value is listed as more than 13.2 and the “SI Ratio” value is given as more than 6.41.

`COc1ccc(NC(=O)c2ccc3cc2Oc2ccc(cc2)C[C@H]2c4cc(c(OC)cc4CCN2C)Oc2c(OC)c(OC)cc4c2[C@@H](C3)N(C)CC4)cc1` [Compound 59]: the “Therapeutic index SI” value is more than 5.3 and the “SI Ratio” value was more than 2.57.

As for `COc1cc2c3cc1Oc1c(OC)c(OC)cc4c1[C@@H](Cc1ccc(C(=O)C5CC5)c(c1)Oc1ccc(cc1)C[C@@H]3N(C)CC2)N(C)CC4` [Compound 61], the “Therapeutic index SI” value was more than 6.85 and the “SI Ratio” value is reported as more than 3.33.

Regarding `COc1cc2c3cc1Oc1c(OC)c(OC)cc4c1[C@@H](Cc1ccc(C(=O)NCCOCCO)c(c1)Oc1ccc(cc1)C[C@@H]3N(C)CC2)N(C)CC4` [Compound 62], the “Therapeutic index SI” value was more than 61.35 and the “SI Ratio” value is listed as more than 29.78.

`COc1cc2c3cc1Oc1c(OC)c(OC)cc4c1[C@@H](Cc1ccc(C(=O)OCCOCCO)c(c1)Oc1ccc(cc1)C[C@@H]3N(C)CC2)N(C)CC4` [Compound 65]: the “Therapeutic index SI” value is more than 29.2 and the “SI Ratio” value was more than 14.17.

Turning to “Berbamine hydrochloride [reference compound]”, the “Therapeutic index SI” value is 2.06 and the “SI Ratio” value amounted to 1.00.
